Source: PubChem BioAssay AID1259414 (Drosophila RNAi Screening Center, 2018)

- Screen: 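Host factors increasing or decreasing Wolbachia levels in cultured fly cells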 (primary screen)
- System: Drosophila JW18 cells infected with Wolbachia
- Reagents: long dsRNA against Drosophila genes, 0.25 µg dsRNA per well of a 384-well plate
- Timing: 5 days
- Challenge: cells persistently infected with Wolbachia before knock-down; no added drug
- Read-out: 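Automated imaging of bacterial rRNA staining divided by host cell count, reported as plate-normalised robust z-score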
- Reading the numbers: Wolbachia per cell robust z: higher = more Wolbachia per host cell than the plate typical
- Rule for the call: 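Hit when robust z is 1.5 or more, or -1.5 or less, in at least two of three replicates; excludes dsRNAs with several or no targets, genes not expressed in JW18 and well A1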
The deposit covers about 24,000 reagents; shown is an unselected part of those that have a named target and a result. Over the whole deposit, about 1,210 (5%) were called active. 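Inactive calls also include excluded dsRNAs with several or no targets, genes unexpressed in JW18, and well A1, regardless of score.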 Unmarked entries are inactive. A plus sign joins genes that one reagent is predicted to hit.

Gene | amplicon | Wolbachia per cell robust z, rep 1 | Wolbachia per cell robust z, rep 2 | Wolbachia per cell robust z, rep 3
CG45066 + CG45067 | DRSC27186 | 0.441 | 0.825 | 0.535
Rlb1 (GeneID 41139) | DRSC16826 | -3.29 | 0.792 | 0.435
Rlb1 (GeneID 41139) | DRSC27846 | 0.625 | -0.125 | 0.746
Acsx1R (GeneID 42352) | DRSC14339 | -0.0749 | 0.101 | 1.6
CG7509 (GeneID 38579) | DRSC08596 | 0.25 | 0.235 | -0.252
Jhbp15 (GeneID 42489) | DRSC15217 | -2.32 | -0.461 | 0.284
shot (GeneID 36542) | DRSC05459 | -0.533 | -0.713 | -0.553
shot (GeneID 36542) | DRSC05460 | -1.41 | -3.79 | 1.52
shot (GeneID 36542) | DRSC07682 | -1.9 (active) | -1.88 | -3.96
shot (GeneID 36542) | DRSC25070 | 0.516 | 1.36 | 0.271
CG7987 (GeneID 41768) | DRSC16357 | -3.59 (active) | -0.767 | -7.07
CG7987 (GeneID 41768) | DRSC30002 | 0.592 | 0.651 | -0.0668
TwdlB (GeneID 43202) | DRSC16050 | -4.01 | -1.32 | -3.23
TwdlB (GeneID 43202) | DRSC25071 | -1.04 | -1.76 | -0.701
CG10910 (GeneID 37052) | DRSC06007 | -4.2 | -2.24 | -3.53
CG10910 (GeneID 37052) | DRSC29305 | -0.684 | -2.23 | -0.71
CG7016 (GeneID 42968) | DRSC16174 | -4.1 | -1.11 | -6.69
Cpr49Ac (GeneID 36348) | DRSC07199 | -0.649 | -7.19 | -1
Pfdn1 (GeneID 33857) | DRSC02325 | -0.0321 | 0.705 | 0.309
Pfdn1 (GeneID 33857) | DRSC26624 | 1.06 | 1.46 | 2.32
CG17985 (GeneID 35702) | DRSC06702 | -0.319 | 0.129 | 0.324
CG31415 (GeneID 318722) | DRSC22409 | -0.814 | -0.614 | -0.244
Or85a (GeneID 40991) | DRSC16764 | -3.86 | 0.202 | 1.12
beat-IIb (GeneID 42082) | DRSC13219 | 0.157 | -0.332 | 0.0695
beat-IIb (GeneID 42082) | DRSC14816 | -0.717 | -1.33 | -0.217
beat-IIb (GeneID 42082) | DRSC15546 | -1.23 | -2.02 | -3.81
CG11192 (GeneID 37309) | DRSC06057 | -3.85 | 0.493 | 1.19
CG11192 (GeneID 37309) | DRSC25902 | -1.25 | -3.58 | -4.31
CG6330 (GeneID 43240) | DRSC16022 | -0.621 | -1.59 | -0.83
CG17760 (GeneID 36385) | DRSC06694 | 0.981 | 0.43 | 0.965
CG17760 (GeneID 36385) | DRSC25493 | -0.215 | -0.382 | 0.0917
Tsp42Eo (GeneID 35625) | DRSC06184 | 1.2 | 0.081 | -0.357
Oga (GeneID 42518) | DRSC15901 | 0.223 | -0.73 | -0.299
CG5623 (GeneID 41904) | DRSC15848 | -5.41 | -0.097 | -0.0134
CG16787 (GeneID 37811) | DRSC04282 | -5.51 (active) | 0.282 | -6.16
Ugt37E1 (GeneID 53512) | DRSC02248 | -0.901 | -2.76 | -0.413
Ugt37E1 (GeneID 53512) | DRSC24769 | -0.0873 | -0.338 | 0.435
CG1523 (GeneID 43400) | DRSC15033 | 0.323 | -0.89 | 0.08
CG1523 (GeneID 43400) | DRSC26315 | 0.643 | 1.26 | -4.34
euc (GeneID 42271) | DRSC14492 | -3.02 | 0.332 | -1.46
CG1607 (GeneID 43707) | DRSC15130 | -0.0224 | 0.303 | 0.36
CG1607 (GeneID 43707) | DRSC27010 | 0.815 | -0.162 | -0.896
ena (GeneID 37201) | DRSC05779 | 0.952 | 1.03 | 1.52
ena (GeneID 37201) | DRSC07610 | 0.389 | 0.96 | 0.355
ena (GeneID 37201) | DRSC25393 | -1.61 | 2.05 | 0.639
CG31323 (GeneID 318682) | DRSC14901 | -3.7 | 1.03 | 0.791

Reagents listed above with an active call (3):
Gene | amplicon | Wolbachia per cell robust z, rep 1 | Wolbachia per cell robust z, rep 2 | Wolbachia per cell robust z, rep 3
shot (GeneID 36542) | DRSC07682 | -1.9 (active) | -1.88 | -3.96
CG7987 (GeneID 41768) | DRSC16357 | -3.59 (active) | -0.767 | -7.07
CG16787 (GeneID 37811) | DRSC04282 | -5.51 (active) | 0.282 | -6.16
